Results of unrelated studies side by side (data: NIAID ChemDB).

Common to all: toxicity to cultured cells; cells: C8166; read-out: CC50

Conditions beyond the fields shown may differ between rows.

structure | method | value
O=C(CCCCCCc1ncc2ccc(Cl)nn12)c1ccccc1 |  | >0.21 µM
CCOP(=O)(N[C@@H](C)C(=O)OC)OC[C@H]1O[C@@H](n2cc(C)c(=O)[nH]c2=O)C[C@@H]1N=[N+]=[N-] | MTT | >500 µg/mL
CCn1cc(C(=O)OCC2OC(n3cc(C)c(=O)[nH]c3=O)CC2N=[N+]=[N-])c(=O)c2cc(F)c(N3CCN(C(=O)OCc4ccccc4)CC3)cc21 | MTT | >285 µM
CC(C)(C)NC(=O)[C@@H]1CCCN1C[C@@H](O)[C@H](Cc1ccccc1)NC(=O)[C@H](CC(N)=O)NC(=O)OCc1ccccc1 |  | >100 µM
COc1c(N2CCN(C(=O)OCc3ccccc3)C(C)C2)c(F)cc2c(=O)c(C(=O)OCC3OC(n4cc(C)c(=O)[nH]c4=O)CC3N=[N+]=[N-])cn(C3CC3)c12 | MTT | 25.11 µM
C=CC(C)(C)c1cc2cc3c(cc2oc1=O)O[C@H](C(C)(C)O)[C@H]3O | MTT | >200 µM
O=CC1=C(Cl)N2C[C@@H]3CCCN4CCC[C@@H]([C@H]34)[C@H]2CC1 | MTT | 41.3 µg/mL
Cc1nc(CCCCCCC(=O)c2ccccc2)n2nc(-n3cccc3)ccc12 |  | >0.007 µM
O=c1c(O[C@@H]2O[C@H](CO)[C@H](O)[C@H](O)[C@H]2O)c(-c2ccc(O)c(O)c2)oc2cc(O)cc(O)c12 |  | >100 µg/mL
Nc1ccn([C@H]2CC[C@@H](CO)O2)c(=O)n1 |  | >1000 µM
CCn1cc(C(=O)O)c(=O)c2cc(F)c(N3CCN(Cc4cn(C5CC(N=[N+]=[N-])C(CO)O5)c(=O)[nH]c4=O)C(C)C3)c(F)c21 | MTT | >324 µM
CO[C@H]1/C=C/O[C@@]2(C)Oc3c(C)c(O)c4c(c3C2=O)C(=O)C(SCCOC(=O)CCC(=O)OC[C@H]2O[C@@H](n3cc(C)c(=O)[nH]c3=O)C[C@@H]2N=[N+]=[N-])=C(NC(=O)/C(C)=C\C=C\[C@H](C)[C@H](O)[C@@H](C)[C@@H](O)[C@@H](C)[C@H](OC(C)=O)[C@@H]1C)C4=O |  | >30 µM
CNC1=CC(=O)C(C[C@]2(C)C(C)CCC3(C)C(C)=CCCC32)=CC1=O |  | 16.2 µM
Cc1nc(CCCCCOC(=O)c2ccccc2)n2nc(Cl)ccc12 |  | >1.6 µM
O=CC1=C(Oc2ccc(Cl)cc2)N2C[C@@H]3CCCN4CCC[C@@H]([C@H]34)[C@H]2CC1 | MTT | 90.12 µg/mL
Nc1ccn([C@@H]2O[C@H](CO)C[C@@H]2F)c(=O)n1 | MTT | >500 µg/mL
Cc1ccccc1OC1=C(C=O)CC[C@@H]2[C@H]3CCCN4CCC[C@@H](CN12)[C@@H]34 | MTT | 56.87 µg/mL
COc1ccc([C@@H]2CC(=O)c3c(O)cc(O)cc3O2)cc1O |  | 15 µg/mL
Nc1ncnc2c1ncn2CCOCP(=O)(O)O |  | >40 µM
O=c1cc(-c2ccccc2)oc2cc(O)c(O)c(O)c12 |  | 50 µg/mL
Cc1nc(CCCCCCC(O)c2ccccc2)n2nc(Cl)ccc12 |  | >0.08 µM
COc1c(N2CCN(Cc3cn(C4CC(N=[N+]=[N-])C(CO)O4)c(=O)[nH]c3=O)C(C)C2)c(F)cc2c(=O)c(C(=O)O)cn(C3CC3)c12 | MTT | 251 µM
O=C1/C(=C\Oc2ccc([N+](=O)[O-])cc2)CC[C@@H]2[C@H]3CCCN4CCC[C@@H](CN12)[C@@H]34 | MTT | 97.96 µg/mL
Cc1nc(CCCCCOCc2ccccc2)n2nc(Cl)ccc12 |  | >0.38 µM
C=C(C)[C@@H]1Cc2c(cc3oc(=O)ccc3c2O)O1 | MTT | >200 µM
CC(C)(C)OC(=O)[C@@H]1CCCN1C[C@@H](O)[C@H](Cc1ccccc1)NC(=O)[C@H](CC(N)=O)NC(=O)OCc1ccccc1 |  | >100 µM
O=CC1=C(Oc2cccc3ccccc23)N2C[C@@H]3CCCN4CCC[C@@H]([C@H]34)[C@H]2CC1 | MTT | 176 µg/mL
CC(C)(C)OC(=O)[C@@H]1CCCN1C[C@@H](O)[C@H](Cc1ccccc1)NC(=O)[C@H](CC(N)=O)NC(=O)c1ccc2ccccc2c1 |  | >10 µM
CC1=CCCC2C1(C)CCC(C)[C@@]2(C)CC1=CC(=O)C(NC(C)C(=O)O)=CC1=O |  | 5.7 µM
COc1ccc(OC2=C(C=O)CC[C@@H]3[C@H]4CCCN5CCC[C@@H](CN23)[C@@H]45)cc1 | MTT | >200 µg/mL
CC1=CCCC2C1(C)CCC(C)[C@@]2(C)Cc1cc(=O)c2nc3[nH]cnc4ncn(c2c1=O)c43 |  | 28.2 µM
C[C@@H]1O[C@@H](Oc2c(-c3ccc(O)c(O)c3)oc3cc(O)cc(O)c3c2=O)[C@H](O)[C@H](O)[C@H]1O |  | >100 µg/mL
COC1=C(C=O)CC[C@@H]2[C@H]3CCCN4CCC[C@@H](CN12)[C@@H]34 | MTT | >200 µg/mL
Cc1cn(C2CC(N=[N+]=[N-])C(COC(=O)c3cn4c5c(c(N6CCN(C)CC6)c(F)cc5c3=O)OC[C@@H]4C)O2)c(=O)[nH]c1=O | MTT | 146 µM
CO[C@H]1/C=C/O[C@@]2(C)Oc3c(C)c(O)c4c(c3C2=O)C(=O)C(SCCOC(=O)CCCC(=O)OC[C@@H]2O[C@H](n3cc(C)c(=O)[nH]c3=O)C[C@H]2N=[N+]=[N-])=C(NC(=O)/C(C)=C\C=C\[C@H](C)[C@H](O)[C@@H](C)[C@@H](O)[C@@H](C)[C@H](OC(C)=O)[C@@H]1C)C4=O |  | >30 µM
CC(C)(O)C(=O)Cc1cc2ccc(=O)oc2cc1O | MTT | >200 µM
CC(C)(C)OC(=O)[C@@H]1CCCN1C[C@H](O)[C@H](Cc1ccccc1)NC(=O)[C@H](CC(N)=O)NC(=O)OCc1ccccc1 | MTT | >200 µg/mL
CCN1CCN(c2cc3c(cc2F)c(=O)c(C(=O)OCC2OC(n4cc(C)c(=O)[nH]c4=O)CC2N=[N+]=[N-])cn3C2CC2)CC1 | MTT | >329 µM
CCNC1=CC(=O)C=C(C[C@]2(C)C(C)CCC3(C)C(C)=CCCC32)C1=O |  | 2.5 µM
C=CC(C)(C)c1cc2cc(C[C@@H](O)C(C)(C)O)c(O)cc2oc1=O | MTT | >200 µM
CC(C)C[C@H](NC(=O)[C@H](CC(=O)O)NC(=O)[C@@H](N)Cc1ccc(O)cc1)C(=O)N[C@@H](CC(=O)O)C(=O)N[C@@H](Cc1ccc(O)cc1)C(=O)N[C@@H](Cc1ccc(O)cc1)C(=O)O |  | >1000 µg/mL

A second listing of 3 rows from above:

{"structure": "CC(C)(C)OC(=O)[C@@H]1CCCN1C[C@@H](O)[C@H](Cc1ccccc1)NC(=O)[C@H](CC(N)=O)NC(=O)c1ccc2ccccc2c1", "value": ">10 µM"}
{"structure": "C=CC(C)(C)c1cc2cc(C[C@@H](O)C(C)(C)O)c(O)cc2oc1=O", "method": "MTT", "value": ">200 µM"}
{"structure": "O=c1c(O[C@@H]2O[C@H](CO)[C@H](O)[C@H](O)[C@H]2O)c(-c2ccc(O)c(O)c2)oc2cc(O)cc(O)c12", "value": ">100 µg/mL"}

CCn: concentration that lowers growth or viability of the cells by n%. Blank or dashed fields: not listed here.